Compound potency records, mixed from different reports. Data source: NIAID ChemDB in PubChem.

All rows: whole-cell or culture tests; organism: Mycobacterium tuberculosis

Lines come from different laboratories, so protocols vary. Percent inhibition refers to the dose given; in toxicity tests it is the harm to the cells. MIC bound comes from a single tested concentration. An empty or dashed field is not shown. Two numbers with a dash give a range or band. ECn: concentration that inhibits the pathogen or its effect by n%. MIC50, MIC90 and the like: level of inhibition, or share of isolates inhibited.

SMILES	dose	strain or isolate	read-out	setting	method	changes	value
O=C(CCC(=O)c1ccc2ccccc2c1)NC[C@H]1CN(c2ccc(N3CCOCC3)c(F)c2)C(=O)O1		ATCC 27294	MIC				5 µg/mL
COC(=O)c1nnn(CC(=O)Nc2ccc(C)c(F)c2)c1C(=O)OC		Clinical isolate	MIC		resazurin		4 µg/mL
CCCCCCCCNCc1ccccc1[N+](=O)[O-]		H37Ra	MIC				<25 µg/mL
O=c1oc(-c2ccc(O)cc2)nn1CN1CCCC1		H37Rv	MIC bound		BACTEC		>12.5 µg/mL
CCCCN(C(=O)COc1cc2c(O)c3c(O)c(C)c4c(c13)C(=O)[C@@](C)(O/C=C/[C@H](OC)[C@@H](C)[C@@H](OC(C)=O)[C@H](C)[C@H](O)[C@H](C)[C@@H](O)[C@@H](C)/C=C/C=C(/C)C(=O)N2)O4)N1CCCCC1		H37Rv	MIC				0.09 µg/mL
CCCCCCCCCCCCCCCCNCc1cccnc1		Sensitive strains	MIC				3.12 µg/mL
CNC(=O)CN1CCC2(C=C(c3nc(-c4ccc(OC)cc4)no3)c3ccccc32)CC1		H37Rv	MIC		resazurin		12 µM
CC(=O)Nc1ccc(OCC(=O)NN2C(=O)CSC2c2cccc([N+](=O)[O-])c2)cc1	12.5 µg/mL	H37Rv	inhibition				0%
CN(C)C/C=C(/c1ccc(-c2ccc(Br)cc2)cc1)c1ccc([N+](=O)[O-])cc1		ALI 536	MIC				18.5 µg/mL
NC(=O)c1cnccn1		T6790	MIC				30 µg/mL
CCC(O)CN1CCC2(C=C(c3nc(-c4ccc(OC)cc4)no3)c3ccccc32)CC1		H37Rv	MIC		resazurin		0.4 µM
CC(C)Cc1ccc(C(=O)CCC(=O)NC[C@H]2CN(c3ccc(N4CCOCC4)c(F)c3)C(=O)O2)cc1		ATCC 27294	MIC				5 µg/mL
O=C(CNC(=O)OCc1ccccc1)NC(CO)C(=O)O		H37Rv	MIC bound		BACTEC		>12.8 µg/mL
CCCCCCCCC=CCCCCCCCCNCc1cccnc1		Clinical isolates MDR	MIC				25 µg/mL
COc1ccc(-c2noc(C3=CC4(CCN(CC(=O)O)CC4)c4ccccc43)n2)cc1		H37Rv	MIC		resazurin		>100 µM
CN(C)C/C=C(/c1ccccc1)c1ccc(-c2ccc(Br)cc2)cc1		ALI 552	MIC				20 µg/mL
CC(=O)OCC1C(OC(C)=O)C(OC(C)=O)C(n2cnc3c(N)ncnc32)N1C(C)=O		H37Rv	MIC bound		resazurin		>6.25 µg/mL
COc1ccc(-c2noc(C3=CC4(CCN(CC5CCCO5)CC4)c4ccccc43)n2)cc1		H37Rv	MIC		turbidity	Spiroindene-resistant	0.2 µM
Cc1c[nH]c(C(=O)NN)c1-c1cc2c(-c3ccccc3)nc3ccccc3n2c1		H37Rv	MIC				<12.5 µg/mL
COc1ccc(NC(=O)NNC(=O)c2ccncc2)cc1		My 331/88	MIC100	14 d	broth dilution		62.5 µM
O=C(/C=C/C(=O)c1ccccc1)NC[C@H]1CN(c2ccc(N3CCOCC3)c(F)c2)C(=O)O1		10 clinical isolates resistant	MIC				>16 µg/mL
CN(C)c1ccc(/C=c2\[nH]c(=O)/c(=C/c3ccc(N(C)C)cc3)[nH]c2=O)cc1		H37Rv	MIC		BACTEC		≥12.5 µg/mL
CCCCCCCCc1ccc(NC(=O)NNC(=O)c2ccncc2)cc1		My 331/88	MIC100	14 d	broth dilution		1 µM
CC(=O)Nc1ccc(OCC(=O)NN2C(=O)C(C)SC2c2ccccc2)cc1	12.5 µg/mL	H37Rv	inhibition				0%
CO[C@H]1/C=C/O[C@@]2(C)Oc3c(C)c(O)c4c(O)c(cc(OCC(=O)N5C(CO)CCC5CO)c4c3C2=O)NC(=O)/C(C)=C\C=C\[C@H](C)[C@H](O)[C@@H](C)[C@@H](O)[C@@H](C)[C@H](OC(C)=O)[C@@H]1C		H37Rv	MIC				0.18 µg/mL
CCC[CH2][Sn]([Br])([I])[CH2]CCC.c1cnc2c(c1)ccc1cccnc12	12.5 µg/mL	H37Rv	inhibition		BACTEC		99%
Oc1cccc(CNCCCCCNCc2cccc(O)c2)c1		H37Ra	MIC				>25 µg/mL
NNC(=O)c1ccncc1		MTB17 (INH RIF-R)	MIC				>4 µg/mL
O=C(NNC(=O)c1ccncc1)Nc1ccc(Br)cc1Br		My 331/88	MIC100	14 d	broth dilution		8 µM
CC(=O)N[C@@H]1[C@@H](OC(C)=O)[C@H](OC(C)=O)[C@@H](COC(C)=O)O[C@H]1NC(=S)NCC(=O)c1ccc(C)cc1	6.25 µg/mL	H37Rv	inhibition		resazurin		-6%
Cc1ccc(/C(=C\CN(C)C)c2ccc(-c3ccc(Br)cc3)cc2)cc1		H37Rv	MIC				79 µg/mL
CC(C)(C)C1CCc2onc(C(=O)N3CCCCC3)c2C1		18b	MIC		resazurin		>16 µg/mL
O=C(CCC(=O)c1cccs1)NC[C@H]1CN(c2ccc(-n3cncn3)c(F)c2)C(=O)O1		10 clinical isolates sensitive	MIC				1–2 µg/mL
COc1nc2[nH]c(C)cc(=O)c2c2ccccc12	12.5 µg/mL	H37Rv	inhibition		BACTEC		17%
CC[C@@H](CO)NCCN[C@@H](CC)CO		Beijing (E-47/94)	MIC		resazurin	Drug-resistant	1.2 µM
CCNc1oc(-c2ccc(S(=O)(=O)N3CCC(C)CC3)cc2)nc1C#N		18b	MIC		resazurin		16 µg/mL
Cc1cc2c(cc1Cl)nc1c(=O)[nH]c(=O)nc-1n2C[C@H](O)[C@H](O)[C@H](O)CO	6.25 µg/mL	H37Rv	inhibition		BACTEC		13%
CC[C@@H](CO)NCCN[C@@H](CC)CO		18b	MIC		resazurin		1 µg/mL
CCCCCCCCNC(CC(=O)OCC)c1ccc(F)cc1		Sensitive strains	MIC				25 µg/mL
CO[C@H]1/C=C/O[C@@]2(C)Oc3c(C)c(O)c4c(O)c(c5c(c4c3C2=O)NC2(CCN(CC(C)C)CC2)N=5)=NC(=O)/C(C)=C\C=C\[C@H](C)[C@H](O)[C@@H](C)[C@@H](O)[C@@H](C)[C@H](OC(C)=O)[C@@H]1C		Kurono	MIC				0.016 µg/mL
CCCCCCCc1ccc(NC(=O)NNC(=O)c2ccncc2)cc1		My 331/88	MIC100	14 d	broth dilution		16 µM
Cc1ccc(-c2noc(C3=CC4(CCN(CC5CCCO5)CC4)c4ccccc43)n2)cn1		TB333	MIC		turbidity	Spiroindene-resistant	12.5 µM
CCCCCCCCC=CCCCCCCCCNCc1ccncc1		Clinical isolates MDR	MIC				50 µg/mL
CN[C@@H]1[C@H](O[C@H]2[C@H](O[C@H]3[C@H](O)[C@@H](O)[C@H](N=C(N)N)[C@@H](O)[C@@H]3N=C(N)N)O[C@@H](C)[C@]2(O)C=O)O[C@@H](CO)[C@H](O)[C@H]1O		TB376	MIC		turbidity	Spiroindene-resistant	1 µM
CCOC(=O)c1cnc2c(cnn2CC)c1N1CCN(CCO)CC1		H37Rv	MIC bound		resazurin		>6.25 µg/mL
CC(=O)Nc1ccc(OCC(=O)NN2C(=O)C(C)SC2c2cccc([N+](=O)[O-])c2)cc1		H37Rv	EC50				>12.5 µg/mL
CNC(=O)N1CCC(n2c(C)nc(C(=O)NC3CC3)c2C)CC1		18b	MIC		resazurin		8 µg/mL
O=C(NCc1ccco1)C(=O)N/N=C/c1ccccc1O	12.5 µg/mL	H37Rv	inhibition		BACTEC		25%
CN(C)C/C=C(/c1ccc(Br)cc1)c1ccc(-c2ccc(Br)cc2)cc1		ALI 909	MIC				17 µg/mL
CO[C@H]1/C=C/O[C@@]2(C)Oc3c(C)c(O)c4c(O)c(c(/C=N/N5CCN(C)CC5)c(O)c4c3C2=O)NC(=O)/C(C)=C\C=C\[C@H](C)[C@H](O)[C@@H](C)[C@@H](O)[C@@H](C)[C@H](OC(C)=O)[C@@H]1C		H37Rv	EC50				0.02 µg/mL
CN(C)C/C=C(\c1ccc(O)cc1)c1ccc(-c2ccccc2)cc1		ALI 3415	MIC				49 µg/mL
S=C1N(c2ccc(Cl)cc2)C2=C(N=Nc3ccccc3)C(=Nc3ccccc3S2)N1c1ccccn1		H37Rv	MIC bound		BACTEC		≤12.5 µg/mL
Cc1c[nH]c(C(=O)O)c1-c1ccc2c(-c3ccccc3)nc3ccccc3n12	12.5 µg/mL	H37Rv	inhibition				11%
CC(=O)Nc1ccc(OCC(=O)NN2C(=O)CSC2/C=C/c2ccccc2)cc1		H37Rv	EC50				>12.5 µg/mL
Cc1cc(=O)c(C(=O)O)c(C)n1-c1ccccc1	12.5 µg/mL	H37Rv	inhibition		BACTEC		-15%
CO[C@H]1/C=C/O[C@@]2(C)Oc3c(C)c(O)c4c(O)c(c(/C=N/N5CCN(C)CC5)c(O)c4c3C2=O)NC(=O)/C(C)=C\C=C\[C@H](C)[C@H](O)[C@@H](C)[C@@H](O)[C@@H](C)[C@H](OC(C)=O)[C@@H]1C			MIC99			526Tyr	≥640 µg/mL
C=C1C(=O)O[C@@H]2C[C@@H](C)[C@@H]3[C@@H](OC4OC(COC(C)=O)C(O)C(O)C4O)CC(=O)[C@@]3(C)C[C@H]12		H37Rv	MIC		BACTEC		12.8 µg/mL
Fc1cc(Br)ccc1Nc1nnc(-c2ccncc2)o1		My 331/88	MIC100	14 d	broth dilution		>125 µM
NC(=O)N/N=C1\CCC(OCc2ccccc2)CC1CC(=O)O	12.5 µg/mL	H37Rv	inhibition		BACTEC		0%
CC(=O)Nc1ccc(OCC(=O)NN2C(=O)CSC2c2ccccc2[N+](=O)[O-])cc1	12.5 µg/mL	H37Rv	inhibition				0%
Cc1c[nH]c(C(=O)O)c1-c1cc2c(-c3ccccc3)nc3ccccc3n2c1	12.5 µg/mL	H37Rv	inhibition				45%
CCOC(=O)c1cc(NC(C)=O)cn1C		H37Rv	MIC bound		resazurin		>6.25 µg/mL
CN(C)CC=C(c1ccc(Br)cc1)c1ccc(-c2ccc(Br)cc2)cc1		H37Ra	MIC				34 µg/mL
CO[C@H]1/C=C/O[C@@]2(C)Oc3c(C)c(O)c4c(O)c(cc(OCC(=O)Nc5ccc(I)cc5)c4c3C2=O)NC(=O)/C(C)=C\C=C\[C@H](C)[C@H](O)[C@@H](C)[C@@H](O)[C@@H](C)[C@H](OC(C)=O)[C@@H]1C		H37Rv	MIC				0.15 µg/mL
O=C1c2ccccc2C2=Nc3ccccc3SC12O		18b	MIC		resazurin		4 µg/mL
CCn1cc(C(=O)O)c(=O)c2cc3c(cc21)OCO3	12.5 µg/mL	H37Rv	inhibition		BACTEC		20%
NC1=NC(c2cc(F)cc(F)c2)n2c(nc3ccccc32)N1		18b	MIC		resazurin		8 µg/mL
CN[C@@H]1[C@H](O[C@H]2[C@H](O[C@H]3[C@H](O)[C@@H](O)[C@H](N=C(N)N)[C@@H](O)[C@@H]3N=C(N)N)O[C@@H](C)[C@]2(O)C=O)O[C@@H](CO)[C@H](O)[C@H]1O		MTB21 (S)	MIC				0.3 µg/mL
CC1C/C=C\COC(=O)CC(C)(C)CC1=O	12.5 µg/mL	H37Rv	inhibition		BACTEC		11%
CCCCCCCCNCc1ccc(Cl)cc1		Sensitive strains	MIC				12.5 µg/mL
C=CCCn1nc(-c2ccccc2)oc1=O	12.5 µg/mL	H37Rv	inhibition		BACTEC		17%
COc1c(N2CCNC(C)C2)c(F)cc2c(=O)c(C(=O)O)cn(C3CC3)c12		H37Rv	MIC				0.05 µg/mL
C[C@H]1[C@H](O)[C@@H](C)/C=C/C=C/C=C/C=C/C=C/C=C/C=C/[C@H](O[C@@H]2O[C@H](C)[C@@H](O)[C@H](N)[C@@H]2O)C[C@@H]2O[C@](O)(C[C@@H](O)C[C@@H](O)CC[C@H](O)[C@@H](O)C[C@@H](O)CC(=O)O[C@H]1C)C[C@H](O)[C@H]2C(=O)O	12.5 µg/mL	H37Rv	inhibition		BACTEC		11%
CC[C@H]1OC(=O)[C@H](C)[C@@H](O[C@H]2C[C@@](C)(OC)[C@@H](O)[C@H](C)O2)[C@H](C)[C@@H](O[C@@H]2O[C@H](C)C[C@H](N(C)C)[C@H]2O)[C@](C)(OC)C[C@@H](C)C(=O)[C@H](C)[C@@H](O)[C@]1(C)O		Isolate 20	MIC				<2 µg/mL
Cc1ccc(C)c2sc3cc(=O)ccc-3nc12		H37Rv	MIC bound		BACTEC		≤12.5 µg/mL
CNC(=O)COc1cc2c(O)c3c(O)c(C)c4c(c13)C(=O)[C@@](C)(O/C=C/[C@H](OC)[C@@H](C)[C@@H](OC(C)=O)[C@H](C)[C@H](O)[C@H](C)[C@@H](O)[C@@H](C)/C=C/C=C(/C)C(=O)N2)O4		H37Rv	MIC				0.15 µg/mL